A mixed list of measured activities; the numbers were collected in NIAID ChemDB.

Common to all: tests in culture; species: Mycobacterium tuberculosis

MIC bound: limit read from a one-dose screen.

SMILES,method,tested at,changes,strain,endpoint,value
O=C1c2ccccc2C(=O)c2c(Cl)cccc21,-,-,-,H37Rv,MIC,>100 µg/mL
CC1=C(C(=O)Nc2cccc([N+](=O)[O-])c2)C(c2ccc(Cl)cc2Cl)C(C(=O)Nc2cccc([N+](=O)[O-])c2)=C(C)N1,-,2.5 µg/mL,-,H37Rv,inhibition,98%
CC1=C(CCCNc2ccc(C(=O)NC(CCC(=O)O)C(=O)O)cc2)C(O)N=C(N)N1,BACTEC,-,-,H37Rv,MIC bound,>12.5 µg/mL
CCCCOC(=O)CSc1nc(N)c2c3c(sc2n1)CC(C(C)(C)C)CC3,MTT / visual reading,-,-,H37Rv,MIC,1.5 µg/mL
Cc1c(O)c(=O)ccn1CCCl,BACTEC,-,-,H37Rv,MIC bound,>12.5 µg/mL
CC(=O)Nc1ccc(NS(=O)(=O)c2ccc(C)cc2)cc1Cl,-,-,-,H37Rv,MIC,>100 µg/mL
NC(=O)c1cnc(Cl)cn1,-,-,-,CDC-BP-98,MIC,16 µg/mL
NC(N)=NCC[C@H](NC(=O)OCCCCCn1ccc(=O)[nH]c1=O)C(=O)O,resazurin,-,-,H37Rv,MIC bound,>6.25 µg/mL
NC(CCCCNC(=O)c1ccccc1)C(=O)O,-,-,-,H37Rv,MIC,100 µg/mL
CCCC(=O)OCC(CSC(=O)CCC)SC(=O)CCC,-,-,-,H37Rv,MIC,6.25 µg/mL
Cc1ccc2oc(=O)n(-c3cccc(Cl)c3)c(=O)c2c1,-,-,-,CNCTC MY331/88,MIC,16 µM
O=C(NCO)c1ccccc1,-,-,-,H37Rv,MIC,>100 µg/mL
Cn1cnc2c(NC(=O)Nc3ccccc3Cl)nc(Cl)cc21,visual reading,-,-,H37Rv,MIC99,12.5 µM
CCCCCCCCCCCCCCCC(=O)SCC1CS1,-,-,-,H37Rv,MIC,>50 µg/mL
COc1ccccc1NC(=O)C1=C(C)NC(C)=C(C(=O)Nc2ccccc2OC)C1c1ccc(Cl)cc1Cl,-,-,-,H37Rv,EC50,<2.5 µg/mL
Nc1nc(-c2ccccc2)c(N=Nc2ccccc2[N+](=O)[O-])s1,BACTEC,6.25 µg/mL,-,H37Rv,inhibition,0%
COc1ccc(C2C(C(=O)Nc3ccccc3Cl)=C(C)NC(C)=C2C(=O)Nc2ccccc2Cl)cc1,-,-,-,H37Rv,EC50,>2.5 µg/mL
CCN(CC)CCNC(=O)c1cc(Cl)cc([N+](=O)[O-])c1,-,-,-,N73,MIC,50 µg/mL
COc1c(-c2ccccc2)[nH]c(=O)c(C#N)c1-c1ccccc1,-,-,-,H37Rv,MIC,>100 µg/mL
O=c1oc2ccc(Br)cc2c(=O)n1-c1ccc(Cl)c(Cl)c1,-,-,-,CNCTC MY331/88,MIC,4 µM
C/C=C(/C)NS(=O)(=O)c1ccc(Br)cc1,-,-,-,H37Rv,MIC,>100 µg/mL
Clc1cn2cc(-c3ccc(Br)cc3)nc2s1,-,-,-,H37Rv,MIC,>6.25 µg/mL
COc1cc(CSc2nc(N)c3c4c(sc3n2)CC(C(C)(C)C)CC4)on1,MTT / visual reading,-,-,H37Rv,MIC,>200 µg/mL
Cc1cc(S(=O)(=O)Nc2nnc3c(C(F)(F)F)cc(Cl)cn23)c(S)cc1Cl,BACTEC,-,-,H37Rv,MIC bound,>12.5 µg/mL
Oc1cc(C(O)CCc2ccc(Cl)cc2)ccc1Oc1ccccc1,resazurin,-,MDR,Clinical isolate,MIC,>12.5 µg/mL
CC(=O)Nc1ccc(S(=O)(=O)Nc2nccc(N3CCCCC3)n2)cc1,-,-,-,H37Rv,MIC,100 µg/mL
O=c1oc2ccc(F)cc2c(=O)n1-c1ccc(Br)cc1,-,-,-,CNCTC MY331/88,MIC,4 µM
NNC(=O)c1ccncc1,-,-,-,Clinical isolate 11,MIC,>100 µg/mL
CCc1c2c(nc3ccc(OCc4cccc(OC)c4)cc13)-c1cc3c(c(=O)n1C2)COC(=O)C3(O)CC,resazurin,-,Extensively drug-resistant,XDR,MIC,12.2 µM
CC(C)c1ccc(O)c(O)c(=O)c1,BACTEC,128 µg/mL,-,H37Rv,inhibition,100%
NNC(=O)c1ccncc1,broth dilution,-,-,CDC1551,MIC,0.03 µg/mL
CC(=O)SCC(CSC(C)=O)OS(=O)(=O)c1ccc(C)cc1,-,-,-,H37Rv,MIC,6.25–12.5 µg/mL
CC[N+](C)(CC)CCNC(=O)c1cc([N+](=O)[O-])cc([N+](=O)[O-])c1,-,-,-,H37Rv,MIC,50 µg/mL
Cc1ccc(-c2cn3cc(Cl)sc3n2)cc1,-,6.25 µg/mL,-,H37Rv,inhibition,13%
Cn1cnc2c(NS(=O)(=O)c3ccc(F)cc3)nc(Cl)cc21,visual reading,-,-,H37Rv,MIC99,12.5 µM
COc1ccc(C2OC3=Nc4cc(C)c(C)cc4NC3C2=O)cc1OC,BACTEC,12.5 µg/mL,-,H37Rv,inhibition,-19%
CO[C@H]1/C=C/O[C@@]2(C)Oc3c(C)c(O)c4c(=O)c(c5oc6cc(N7CCN(CC(C)C)CC7)cc(=O)c6nc5c4c3=C2O)NC(=O)/C(C)=C\C=C\[C@H](C)[C@H](O)[C@@H](C)[C@@H](O)[C@@H](C)[C@H](OC(C)=O)[C@@H]1C,-,-,-,2275 (rifampin-resistant),MIC,0.2 µg/mL
CN1C=CC(=CC=C2C=CC(=O)C=C2)C=C1,BACTEC,12.5 µg/mL,-,H37Rv,inhibition,0%
NC(=O)COc1ccc(Cl)cc1,-,-,-,H37Rv,MIC,>100 µg/mL
CC(C)(C)OC(=O)CSc1nc(N)c2c3c(sc2n1)CC(C(C)(C)C)CC3,MTT / visual reading,-,-,H37Rv,MIC,>200 µg/mL
O=C(CC1Sc2ccccc2NC1=O)NNc1ccc(F)cc1,BACTEC,-,-,H37Rv,MIC bound,>12.5 µg/mL
Nc1ccc([As](SCC(=O)[O-])SCC(=O)[O-])cc1.[Na+].[Na+],-,-,-,H37Rv,MIC,>100 µg/mL
CO[C@H]1/C=C/O[C@@]2(C)Oc3c(C)c(O)c4c(O)c(c5c(c4c3C2=O)NC2(CCN(CC(C)C)CC2)N=5)=NC(=O)/C(C)=C\C=C\[C@H](C)[C@H](O)[C@@H](C)[C@@H](O)[C@@H](C)[C@H](OC(C)=O)[C@@H]1C,-,-,-,2230 (rifampin-resistant),MBC,0.8 µg/mL
S=c1[nH]cc[nH]1,-,-,-,H37Rv,MIC,>100 µg/mL
CCN(CC)CCNC(=O)c1ccc([N+](=O)[O-])cc1Cl,-,-,-,N353,MIC,50 µg/mL
C=C/C(C)=C/[C@@]1(C)SC(=O)C(C)=C1O,-,-,-,NHN335,MIC,20 µg/mL
CC(=O)Nc1ccc(C(=O)O)c([N+](=O)[O-])c1,BACTEC,-,-,H37Rv,MIC bound,>12.5 µg/mL
Oc1cc(C(O)CCc2ccc(F)cc2)ccc1Oc1ccccc1,resazurin,-,-,H37Rv,MIC,4 µg/mL
Nc1ccc(C(=O)O)c(O)c1,-,-,-,Clinical isolate 9,MIC,20 µg/mL
O=C(c1ccccc1)c1cccc(Br)c1,-,-,-,H37Rv,MIC,>100 µg/mL
O=C(COc1ccc(Cl)cc1)SCC1CS1,-,-,-,H37Rv,MIC,>50 µg/mL
O=[N+]([O-])CC(O)(c1ccccc1)c1ccccc1,-,-,-,H37Rv,MIC,>100 µg/mL
COC1C[C@H](C)[C@@H](OC)C2=CC(=O)C=C(NC(=O)/C(C)=C/C=C\[C@H](C)C(OC(N)=O)/C(C)=C/[C@@H](C)[C@@H]1OC)C2=O,-,-,-,INH-r,MIC,6.3 µg/mL
Oc1cc(C(O)CCc2ccco2)ccc1Oc1ccccc1,resazurin,-,INH resistant,Clinical isolate,MIC,12.5 µg/mL
O=[N+]([O-])c1ccc(-c2cn3cc(Cl)sc3n2)cc1,-,-,-,H37Rv,MIC,>6.25 µg/mL
Cc1ccc2c(c1)[n+]([O-])c(N)c(C#N)[n+]2[O-],resazurin,-,-,H37Rv,MIC bound,>6.25 µg/mL
Oc1cc(Cl)ccc1Oc1ccc(Cl)cc1Cl,resazurin,-,MDR,Clinical isolate,MIC,>12.5 µg/mL
O=[As](O)(O)c1ccc(OCCOCCO)cc1,-,-,-,H37Rv,MIC,>100 µg/mL
O=C(O)c1cnccn1,BACTEC,12.5 µg/mL,-,H37Rv,inhibition,7%
CC1=C(C(=O)Nc2ccccc2)C(c2cccc([N+](=O)[O-])c2)C(C(=O)Nc2ccccc2)=C(C)N1,-,2.5 µg/mL,-,H37Rv,inhibition,75%
COc1cc2c(c3oc(=O)cc(CCC(=O)O)c13)C1CC(=O)OC1O2,BACTEC,-,-,H37Rv,MIC bound,>12.5 µg/mL
NCCNC(N)=O,-,-,-,H37Rv,MIC,>100 µg/mL
CCc1c2c(nc3ccc(OCc4ccc(F)c(F)c4F)cc13)-c1cc3c(c(=O)n1C2)COC(=O)C3(O)CC,resazurin,-,-,H37Rv,MIC,23.29 µM
CC(=O)NC[C@H]1CN(c2ccc(N3CCOCC3)c(F)c2)C(=O)O1,-,-,-,AZD5847-resistant 8.8,MIC,16 µg/mL
Clc1ccc(-c2cn3cc(Cl)sc3n2)cc1,-,-,-,H37Rv,MIC,>6.25 µg/mL
C/C(=N\NC(=S)N(C)C)c1ccccn1.[Cu][Br],-,-,-,R506,MIC90,3.13 µM
CN(C)c1ccc(N=Nc2ccc([As](=O)(O)O)cc2)cc1,-,-,-,H37Rv,MIC,>100 µg/mL
O=Cc1cccc(/C=N/NC(=O)c2ccncc2)c1,BACTEC,-,INH resistant,H37Rv delta-katG,MIC99,>39.5 µM
CCOC(=O)NNP(=O)(NNC(=O)OCC)c1ccccc1,BACTEC,6.25 µg/mL,-,H37Rv,inhibition,0%
Cc1ccccc1NC(=O)Nc1nc(Cl)cc2c1ncn2C,visual reading,-,-,H37Rv,MIC99,25 µM
CCc1c2c(nc3ccc(OCc4cc(OC)ccc4Br)cc13)-c1cc3c(c(=O)n1C2)COC(=O)C3(O)CC,resazurin,-,Extensively drug-resistant,XDR,MIC,21.18 µM
Cn1cnc2c(NC(=O)c3cccc(Cl)c3)nc(Cl)cc21,visual reading,-,-,H37Rv,MIC99,25 µM
Cc1ccc2oc(=O)n(-c3ccc(C(F)(F)F)cc3)c(=O)c2c1,-,-,-,CNCTC MY331/88,MIC,8 µM
CC(=O)SC(C)C1CS1,-,-,-,H37Rv,MIC,25–50 µg/mL
CC1COc2c(N3CCN(C)CC3)c(F)cc3c(=O)c(C(=O)O)cn1c23,broth dilution,-,-,Rifampicin-resistant JALMA,MIC,0.5 µg/mL
Cn1cnc2c(NS(=O)(=O)c3cccc(Br)c3)nc(Cl)cc21,visual reading,-,-,H37Rv,MIC99,12.5 µM
Nn1c(-c2ccccc2)nn(C(=O)c2ccccc2)c1=O,BACTEC,12.5 µg/mL,-,H37Rv,inhibition,0%
Nc1ccc(-c2nc3ccccc3[nH]2)cc1,-,-,-,H37Rv,MIC,100 µg/mL
Nc1ccc(-c2cn3cc(Cl)sc3n2)cc1,-,6.25 µg/mL,-,H37Rv,inhibition,0%
COc1cc2oc(=O)ccc2cc1CC=C(C)C,BACTEC,-,-,H37Rv,MIC,64 µg/mL
Oc1ccc(O)cc1,-,-,-,H37Rv,MIC,100 µg/mL
O=C1c2c(O)ccc(O)c2C(=O)c2c(NCCCCO)ccc(NCCCCO)c21,BACTEC,-,-,H37Rv,MIC bound,>12.5 µg/mL
CO[C@H]1/C=C/O[C@@]2(C)Oc3c(C)c(O)c4c(O)c(c(/C=N/N5CCN(C)CC5)c(O)c4c3C2=O)NC(=O)/C(C)=C\C=C\[C@H](C)[C@H](O)[C@@H](C)[C@@H](O)[C@@H](C)[C@H](OC(C)=O)[C@@H]1C,-,-,-,Clinical isolate 10,MIC,0.5 µg/mL
CCN(CC)Cc1c(-c2ccccc2)oc(-c2ccccc2)c1CN(CC)CC,BACTEC,12.5 µg/mL,-,H37Rv,inhibition,97%
O=c1ccc2ccccc2o1,-,-,-,H37Rv,MIC,>100 µg/mL
O=C(CCc1ccc(Cl)cc1)c1ccc(Oc2ccccc2)c(O)c1,resazurin,-,-,H37Rv,MIC,15 µg/mL
CCOC(=O)CSc1nc(N)c2c3c(sc2n1)CC(C(C)(C)C)CC3,MTT / visual reading,-,-,H37Rv,MIC,0.39 µg/mL
CCCCCCCCCCCCSC(CC(=O)c1ccccc1)c1ccccc1,-,-,-,H37Rv,MIC,50 µg/mL
CCc1c2c(nc3ccc(OCc4ccccc4Br)cc13)-c1cc3c(c(=O)n1C2)COC(=O)C3(O)CC,resazurin,-,-,H37Rv,MIC,11.13 µM
COc1ccc(NC(=O)c2cc([N+](=O)[O-])ccc2Oc2ccccc2)cc1NC(=O)CC(=O)c1ccccc1OC,-,-,-,H37Rv,MIC,100 µg/mL
CCOC(=O)C(=O)SCC1CS1,-,-,-,H37Rv,MIC,12.5 µg/mL
COC(=O)c1cccc(C)n1,BACTEC,-,-,H37Rv,MIC bound,>12.5 µg/mL
O=[N+]([O-])c1ccc(-c2cn3ccsc3n2)cc1,-,6.25 µg/mL,-,H37Rv,inhibition,0%

A second listing of 6 rows from above:

S=c1[nH]cc[nH]1 ; strain: H37Rv ; endpoint: MIC ; value: >100 µg/mL
CCc1c2c(nc3ccc(OCc4ccccc4Br)cc13)-c1cc3c(c(=O)n1C2)COC(=O)C3(O)CC ; method: resazurin ; strain: H37Rv ; endpoint: MIC ; value: 11.13 µM
CCc1c2c(nc3ccc(OCc4cccc(OC)c4)cc13)-c1cc3c(c(=O)n1C2)COC(=O)C3(O)CC ; method: resazurin ; changes: Extensively drug-resistant ; strain: XDR ; endpoint: MIC ; value: 12.2 µM
O=c1oc2ccc(F)cc2c(=O)n1-c1ccc(Br)cc1 ; strain: CNCTC MY331/88 ; endpoint: MIC ; value: 4 µM
Cn1cnc2c(NC(=O)c3cccc(Cl)c3)nc(Cl)cc21 ; method: visual reading ; strain: H37Rv ; endpoint: MIC99 ; value: 25 µM
O=[N+]([O-])c1ccc(-c2cn3cc(Cl)sc3n2)cc1 ; strain: H37Rv ; endpoint: MIC ; value: >6.25 µg/mL

An empty or dashed field is not shown. a–b is a range or a potency band. Percent inhibition refers to the dose given; in toxicity tests it is the harm to the cells. MIC50, MIC90 and the like: level of inhibition, or share of isolates inhibited. ECn is the concentration giving n% inhibition of infection, replication or growth. Rows are shuffled and stem from different studies.